Compound potency records, mixed from different reports. Data source: NIAID ChemDB in PubChem.

Common to all: growth or infection tests; species: HIV-1; cells: MT-4; read-out: EC50

Lines come from different laboratories, so protocols vary.

{"smiles": "CCC(C)Oc1cc(=O)[nH]c(S(=O)(=O)c2ccccc2Cl)n1", "strain": "IIIB", "method": "cytopathic effect / MTT", "result": "52 µM"}
{"smiles": "CCOCn1c(Sc2ccc3ccccc3c2[N+](=O)[O-])c(CC)c(=O)[nH]c1=O", "strain": "IIIB", "method": "cytopathic effect / MTT", "result": "0.099 µM"}
{"smiles": "COC(=O)N[C@H](C(=O)N[C@@H](Cc1ccccc1)[C@@H](O)CN(Cc1ccc(-c2ccccn2)cc1)NC(=O)[C@@H](NC(=O)OC)C(C)(C)C)C(C)(C)C", "strain": "NL4-3", "mutations": "L10F L33I M36I M46I I54V K55R I62V L63P A71V G73S V82T", "method": "p24 / luminescence", "result": ">1 µM"}
{"smiles": "O=c1[nH]cnc2c1ncn2[C@H]1CC[C@@H](CO)O1", "strain": "126 3TC (RT-M184V)", "mutations": "RT-M184V", "method": "p24", "result": "82 µM"}
{"smiles": "COc1cc2c(c(OC)c1CC=C(C)C)C[C@H](c1ccc(O)cc1O)CO2", "strain": "IIIB", "method": "MTT", "result": ">10 µg/mL"}
{"smiles": "CCC(C)Oc1cc(N)nc(Sc2cccc(OC)c2)n1", "strain": "IIIB", "method": "cytopathic effect / MTT", "result": "75 µM"}
{"smiles": "O=C1N(Cc2ccc(CO)cc2)[C@H](Cc2ccccc2)[C@H](O)[C@@H](O)[C@@H](Cc2ccccc2)N1Cc1ccc(CO)cc1", "strain": "IIIB", "method": "cytopathic effect / XTT", "result": "0.12 µM"}
{"smiles": "CC(C)CN(C[C@@H](O)[C@H](Cc1ccccc1)NC(=O)O[C@H]1CCOC1)S(=O)(=O)c1ccc(N)cc1", "strain": "NL4-3", "mutations": "L10F K20T D30N K45I A71V V77I", "method": "p24 / luminescence", "result": "0.059 µM"}
{"smiles": "CC(C)=CCc1cc(C2CC(=O)c3c(cc(O)c(CC=C(C)C)c3O)O2)ccc1O", "strain": "IIIB", "method": "MTT", "result": ">25 µg/mL"}
{"smiles": "CN[C@H]1CO[C@@H]2OCC[C@H](OC(=O)N[C@@H](Cc3cccc(OC)c3)[C@H](O)CN(CC(C)C)S(=O)(=O)c3ccc4nc(NC(C)C)sc4c3)[C@@H]21", "strain": "NL4-3", "mutations": "L10I N37D G48V I54V L63P G73C I84V L90M", "method": "p24 / luminescence", "result": "0.051 µM"}
{"smiles": "CC(C)=CCc1c(O[C@@H]2C[C@H](CO)[C@@H](O)[C@H](O)[C@H]2O)cc(O)c2c(=O)c(O[C@@H]3O[C@@H](C)[C@H](O)[C@@H](O)[C@H]3O[C@@H]3O[C@H](CO)[C@@H](O)[C@H](O)[C@H]3O)c(-c3ccc(O)cc3)oc12", "strain": "IIIB", "method": "cytopathic effect / MTT", "result": ">500 µg/mL"}
{"smiles": "Cc1cn([C@H]2C[C@H](N=[N+]=[N-])[C@@H](CO)O2)c(=O)[nH]c1=O", "strain": "NMR15", "method": "cytopathic effect / trypan blue", "result": "0.003 µM"}
{"smiles": "CCC(C)Oc1cc(=O)[nH]c(Sc2ccccc2Cl)n1", "strain": "IIIB", "method": "cytopathic effect / MTT", "result": "25 µM"}
{"smiles": "CC(C)=CCc1cc(C2CC(=O)c3c(O)cc(O)c(CC=C(C)C)c3O2)cc(O)c1O", "strain": "IIIB", "method": "MTT", "result": ">100 µg/mL"}
{"smiles": "CCc1c(Sc2ccc3ccccc3c2)n(COC)c(=O)[nH]c1=O", "strain": "IIIB", "method": "cytopathic effect / MTT", "result": "22.02 µM"}
{"smiles": "CO[P@](=O)(c1cc(C)cc(/C=C/C#N)c1)c1c(C(N)=O)[nH]c2ccc(Cl)cc12", "strain": "BH10", "mutations": "K103N/Y181C", "result": "0.0066 µM"}
{"smiles": "Cc1c(Sc2cccc3ccccc23)n(COCc2ccccc2)c(=O)[nH]c1=O", "strain": "IIIB", "method": "cytopathic effect / MTT", "result": "0.18 µM"}
{"smiles": "CC(C)CN(C[C@@H](O)[C@H](Cc1ccccc1)NC(=O)O[C@H]1CCOC1)S(=O)(=O)c1ccc(N)cc1", "strain": "NL4-3", "mutations": "PR-D30N A71V", "method": "p24", "result": "<0.02 µM"}
{"smiles": "CCC(C)Oc1nc(Sc2cccc(C)c2)cc(=O)[nH]1", "strain": "IIIB", "method": "cytopathic effect / MTT", "result": ">200 µM"}
{"smiles": "CCc1c(Sc2ccc3ccccc3c2N)n(COCc2ccccc2)c(=O)[nH]c1=O", "strain": "IIIB", "method": "cytopathic effect / MTT", "result": "3.65 µM"}
{"smiles": "COc1cc2oc(=O)c(-c3ccc(O)cc3O)cc2c(OC)c1CC=C(C)C", "strain": "IIIB", "method": "MTT", "result": ">20 µg/mL"}
{"smiles": "COCn1c(Sc2ccc3ccccc3c2)c(C(C)C)c(=O)[nH]c1=O", "strain": "IIIB", "method": "cytopathic effect / MTT", "result": "4.69 µM"}
{"smiles": "CCC(C)Oc1cc(=O)[nH]c(Sc2ccc(C)cc2)n1", "strain": "IIIB", "method": "cytopathic effect / MTT", "result": "110 µM"}
{"smiles": "CC(C)=CCc1c(O)cc(O)c(CC=C(C)C)c1CCc1ccc(O)c(O)c1", "strain": "IIIB", "method": "cytopathic effect / MTT", "result": ">20 µg/mL"}
{"smiles": "CC(C)c1c(Sc2ccc3ccccc3c2)n(COCc2ccccc2)c(=O)[nH]c1=O", "strain": "IIIB", "method": "cytopathic effect / MTT", "result": "0.83 µM"}
{"smiles": "COc1c(CC=C(C)C)cc(C2CC(=O)c3c(O)cc(O)cc3O2)c(CC=C(C)C)c1O", "strain": "IIIB", "method": "MTT", "result": ">20 µg/mL"}
{"smiles": "CCC(C)Oc1cc(N)nc(S(=O)(=O)c2cccc(C)c2)n1", "strain": "IIIB", "method": "cytopathic effect / MTT", "result": ">97 µM"}
{"smiles": "CCN[C@H]1CO[C@@H]2OCC[C@H](OC(=O)N[C@@H](Cc3ccccc3)[C@H](O)CN(CC(C)C)S(=O)(=O)c3ccc4nc(NC5CC5)sc4c3)[C@@H]21", "strain": "NL4-3", "mutations": "L10I L33I M36I M46I I54V K55R I62V L63P A71V G73S V82T L90M I93L", "method": "p24 / luminescence", "result": "0.0063 µM"}
{"smiles": "C=CC(C)(C)c1c(O)cc(O)c2c(=O)c(O)c(-c3cc(O)c(O)c(CC=C(C)C)c3CC=C(C)C)oc12", "strain": "IIIB", "method": "cytopathic effect / MTT", "result": ">40 µg/mL"}
{"smiles": "CN[C@H]1CO[C@@H]2OCC[C@H](OC(=O)N[C@@H](Cc3ccccc3)[C@H](O)CN(CC(C)C)S(=O)(=O)c3ccc4nc(NC5CC5)sc4c3)[C@@H]21", "strain": "NL4-3", "mutations": "L10F L33I M36I M46I I54V K55R I62V L63P A71V G73S V82T", "method": "p24 / luminescence", "result": "0.0029 µM"}
{"smiles": "COc1c(O)ccc(C2CC(=O)c3c(O)cc(O)c(CC=C(C)C)c3O2)c1CC=C(C)C", "strain": "IIIB", "method": "MTT", "result": "3 µg/mL"}

A second listing of 4 rows from above:

smiles	strain	mutations	method	result
CCC(C)Oc1cc(=O)[nH]c(S(=O)(=O)c2ccccc2Cl)n1	IIIB	-	cytopathic effect / MTT	52 µM
COCn1c(Sc2ccc3ccccc3c2)c(C(C)C)c(=O)[nH]c1=O	IIIB	-	cytopathic effect / MTT	4.69 µM
COc1cc2oc(=O)c(-c3ccc(O)cc3O)cc2c(OC)c1CC=C(C)C	IIIB	-	MTT	>20 µg/mL
COc1cc2c(c(OC)c1CC=C(C)C)C[C@H](c1ccc(O)cc1O)CO2	IIIB	-	MTT	>10 µg/mL

ECn is the concentration giving n% inhibition of infection, replication or growth. Blank or dashed fields: not listed here.